Test results taken from US10456414B2, “Methods for treating HCV” (priority 2011, dated 2019).

Assays:
[1] = test system: HCV genotype 1b replicon cells (Huh-luc); assay: EC50 determination in Huh-luc replicon cells (Biological Example 2); assay type: cell-based; details: 3 days, IFN-α in Units per milliliter
Procedure: Compounds were serially diluted 1:3 in 100% DMSO (Sigma). These serial dilutions were added to the cells at a 1:200 dilution to achieve a final concentration of 0.5% DMSO in a total volume of 200 μL. […] EC50 values were calculated from the resulting equations as described previously.

[2] = test system: HCV genotype 1b replicon cells (Huh-luc); assay: Antiviral activity assay in HCV Huh-luc replicon cells (Biological Example 5); assay type: cell-based; details: 3 days, IFN-α in Units per milliliter
Procedure: Serial dilutions were added to the cells at a 1:200 dilution to achieve a final concentration of 0.5% DMSO in a total volume of 200 μL.
EC50 values were calculated by nonlinear regression analysis of replicate data sets using XLfit 4 software (IDBS, Emeryville, Calif.).

IFN-α
EC50 [1]: 0.105 ± .003 U/mL
EC50 [2]: 0.05 U/ml ± 0.04
